Measured values from several laboratories, pooled; numbers as filed in NIAID ChemDB.

Shared fields: growth or infection tests; agent: HIV-2

Blank or dashed fields: not listed here. Fold resistance: result on the changed form divided by that on wild type. ECn is the concentration giving n% inhibition of infection, replication or growth. Percent inhibition refers to the dose given; in toxicity tests it is the harm to the cells. Neighbouring rows are from separate reports.

structure	strain	mutations	cell line	method	read-out	tested at	result
CC(C)(C)NC(=O)[C@@H]1C[C@@H]2CCCC[C@@H]2CN1C[C@@H](O)[C@H](Cc1ccccc1)NC(=O)[C@H](CC(N)=O)NC(=O)c1ccc2ccccc2n1	ROD		PBMC	RT activity	EC90		0.019 µM
Nc1ncnc2c1ncn2[C@H]1CC[C@@H](CO)O1	LAV-2		CEM	virus yield	inhibition	0.1 µM	0%
CO[C@H]1[C@@H](O)[C@H](n2cnc3c(N)ncnc32)[C@@H](O)[C@H](O)[C@@H]1O.O=C(O)/C=C/C(=O)O			MT-4	cytopathic effect / MTT	inhibition	10 µg/mL	35.7%
CN=C1CN=C(c2ccc[nH]2)c2cc(Cl)ccc2N1	ROD		HT4 + HT4-6C	plaque count	EC90		>10 µM
Cc1cn([C@H]2C[C@H](N=[N+]=[N-])[C@@H](CO)O2)c(=O)[nH]c1=O			PBMC	p24 / ELISA	EC90		0.01 µM
C1CNCCNCCCN(CCCN2CCCNCCNCCCNCC2)CCNC1	ROD		CEM	antigen	EC90		1.49 µM
CO[C@H]1[C@@H](O)[C@H](n2cnc3c(N)ncnc32)[C@@H](O)[C@H](O)[C@@H]1O			MT-4	cytopathic effect / MTT	inhibition	10 µg/mL	57.6%
C1CNCCNCCCN[C@H]([C@@H]2CNCCCNCCNCCCN2)CNC1	EHO		MT-4	cytopathic effect / MTT	EC90		0.87 µM
COC(=O)[C@H](C)NP(=O)(OC[C@@H]1C=C[C@H](n2cnc3c(N)ncnc32)O1)Oc1ccccc1	ROD		MOLT-4/C8 + MOLT-4		EC50		0.04 µM
C#C[C@]1(CO)O[C@@H](n2cnc3c(N)nc(F)nc32)CC1O	ROD9	K65R Q151M	MAGIC-5A	β-galactosidase / absorbance	fold resistance		0.5
Cc1cn([C@H]2C[C@H](N=[N+]=[N-])[C@@H](CCP(O[Si](C)(C)C)O[Si](C)(C)C)O2)c(=O)[nH]c1=O	ROD		CEM	syncytia	inhibition	400 µM	0%
CC[C@@]1(O)C(=O)OCc2c1cc1n(c2=O)Cc2c-1nc1ccccc1c2CO	ROD		C8166	syncytia	EC50		0.0024 µg/mL
CCc1c(C(=O)c2cc(C)cc(C)c2)n(CC2CC=CC2)c(=O)[nH]c1=O	+ 20mg/mL BSA		CEM + CEM-SS	cytopathic effect / XTT	EC50		0.002 µM
CC(C)[C@H](NC(=O)c1ccc2ccccc2n1)C(=O)N[C@@H](Cc1ccccc1)[C@H](O)CN1CC[C@@H](OCc2ccncc2)C[C@H]1C(=O)NC(C)(C)C	ROD		PBMC	p24	inhibition	0.158 µM	90%
O=c1[nH]cnc2c1ncn2[C@H]1CC[C@@H](CO)O1	2300		PBMC	ELISA	EC50		3.35 µM
CC(C)CN(C[C@@H](O)[C@H](Cc1ccccc1)NC(=O)[C@@H](NC(=O)CNCc1cccc(F)c1)C(C)(C)C)S(=O)(=O)c1cccc(N)c1			MT-2	virus yield	EC90		0.01 µM
Cc1cn([C@H]2C[C@H](N=[N+]=[N-])[C@@H](CO)O2)c(=O)[nH]c1=O	ROD		PBMC	RT activity	EC90		0.2 µM
O=c1[nH]cnc2c1ncn2[C@H]1CC[C@@H](CO)O1	ROD		MOLT-4/C8 + MOLT-4		EC50		4.5 µM
CO[C@@H]1[C@@H](O)[C@@H](O)[C@H](O)[C@H](O)[C@H]1n1ccc(N)nc1=O.O=C(O)/C=C/C(=O)O			MT-4	cytopathic effect / MTT	inhibition	10 µg/mL	32.6%

Repeating the final 2 entries:

structure	strain	mutations	cell line	method	read-out	tested at	result
O=c1[nH]cnc2c1ncn2[C@H]1CC[C@@H](CO)O1	ROD		MOLT-4/C8 + MOLT-4		EC50		4.5 µM
CO[C@@H]1[C@@H](O)[C@@H](O)[C@H](O)[C@H](O)[C@H]1n1ccc(N)nc1=O.O=C(O)/C=C/C(=O)O			MT-4	cytopathic effect / MTT	inhibition	10 µg/mL	32.6%